{"source": "paper PMC11883740", "about": "“N-Terminal Protein Binding and Disorder-to-Order Transition by a Synthetic Receptor” (2025)", "biological_target": "MKA-RSL (Ralstonia solanacearum lectin with N-terminal Met-Lys-Ala extension) (Ralstonia solanacearum)", "assay": "crystal structure"}
{"substance": "MKA-RSL (Ralstonia solanacearum lectin with N-terminal Met-Lys-Ala extension) (natural protein)", "values": [{"measurement": "stoichiometry N", "value": 3}]}
